Reference: PubChem BioAssay AID504761 (Drosophila RNAi Screening Center, 2011)

Purpose: 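Fly genes whose silencing reduces dengue virus type 2 infection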 (primary screen)
Cells: D.Mel-2 cells from Drosophila
Knock-down reagent: long dsRNA against Drosophila genes
Conditions: infection with dengue virus type 2; dose and infection time not stated
Measured: 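Cells stained for dengue envelope protein and imaged; percent of infected cells per well on duplicate plates, ranked by infection, with stained nuclei counted for cell number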
Reading the numbers: infection score: higher = more virus-infected cells
Call rule: 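Very low infection ranking in both replicate wells (chance probability at most 0.065), then a retest showing infection dropped 1.5-fold or more at p below 0.05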
Meaning of the calls: active = confirmed: knock-down lowers infection; inactive = not picked or not confirmed
The screen tested about 22,000 reagents; shown is an unselected part of those that have a named target and a result. Of all reagents, 116 (0.52%) were called active. 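Calls depend on retest data that are not deposited; infection was ranked per plate without normalising between plates; the unit of the infection score is not given.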 A number with no mark means an inactive call. A plus sign joins genes that one reagent is predicted to hit. Not all columns of the deposit are shown. Reagent sequences are not shown. The record does not give: the amount of reagent, the time to read-out.

Gene | DRSC id | infection score, replicate 1
Osi8 (Osiris 8) | DRSC12277 | 4.75
Osi8 (Osiris 8) | DRSC27462 | 18.1
reb (rebuf) | DRSC06308 | 3.83
prod (proliferation disrupter) | DRSC07667 | 11.3
prod (proliferation disrupter) | DRSC25498 | 1.87
CG18231 | DRSC10307 | 7.5
Myb (Myb oncogene-like) | DRSC20260 | 3.87
ND2 (retired record) | DRSC21274 | 0.75
CG11807 | DRSC06087 | 2.95
CG9132 | DRSC20159 | 4.84
CG33136 | DRSC05744 | 1.19
CG33136 | DRSC29014 | 15.9
CG1090 | DRSC12150 | 7.74
CG1090 | DRSC21604 | 4.35
CG7453 | DRSC20046 | 8.09
CG7453 | DRSC24580 | 5.56
Rpn13R (Regulatory particle non-ATPase 13-related) | DRSC18404 | 1.57
Rpn13R (Regulatory particle non-ATPase 13-related) | DRSC23628 | 8.58
cpb (capping protein beta) | DRSC00809 | 1.95
cpb (capping protein beta) | DRSC29870 | 13.2
Hmx (H6-like-homeobox) | DRSC24958 | 3.38
Hmx (H6-like-homeobox) | DRSC25028 | 3.75
CG34140 + Mkp | DRSC26000 | 9.03
CG15611 | DRSC06563 | 17.4
CG15611 | DRSC06564 | 16.7
ymp (yellow-emperor) | DRSC13720 | 8.84
ymp (yellow-emperor) | DRSC14482 | 6.53
Est-6 (Esterase 6) | DRSC11162 | 1.05
Tgt (tRNA-guanine transglycosylase) | DRSC00672 | 1.75
Herc4 (HECT and RLD domain containing E3 ubiquitin ligase 4) | DRSC08631 | 0.8
rost (rolling stone) | DRSC03603 | 17.7
rost (rolling stone) | DRSC28296 | 9.18
Rgk1 (retired record) | DRSC07343 | 3.46
Rgk1 (retired record) | DRSC25970 | 3.97
Sodh2 (Sorbitol dehydrogenase 2) | DRSC16865 | 1.77
Arms (Ankyrin repeat-rich membrane spanning) | DRSC03856 | 3.87
Arms (Ankyrin repeat-rich membrane spanning) | DRSC03857 | 1.59
Arms (Ankyrin repeat-rich membrane spanning) | DRSC04052 | 8.8
Arms (Ankyrin repeat-rich membrane spanning) | DRSC04256 | 8.4
Arms (Ankyrin repeat-rich membrane spanning) | DRSC28371 | 8.05
